Pooled drug test results. Numbers come from NIAID ChemDB, via PubChem.

All rows: enzyme or target tests; species: HIV-1; protein: Integrase; read by: 3′ processing; measure: IC50

ICn: concentration for n% inhibition. An empty or dashed field is not shown. Rows are shuffled and stem from different studies.

structure | setting | value
O=C1c2c(ccc(O)c2O)CN1Cc1ccc(F)c(Cl)c1 |  | 13 µM
O=C(O)COc1ccc(S(=O)(=O)c2ccc(OCC(=O)O)c([N+](=O)[O-])c2)cc1[N+](=O)[O-] |  | 70 µM
COC(=O)C(=O)c1c(-c2ccc(O)c(OC)c2)[nH]c2[nH]n(-c3ccccc3)c(=O)c2c1=O |  | >250 µM
CN(C)[C@@H]1C(=O)C(C(N)=O)=C(O)[C@@]2(O)C(=O)C3=C(O)c4c(O)cccc4[C@@](C)(O)[C@H]3[C@H](O)[C@@H]12 | Mg2+ | >200 µM
O=[N+]([O-])c1cc(S(=O)(=O)c2ccc(F)c([N+](=O)[O-])c2)ccc1F |  | 51 µM
CC(=O)Oc1cc(/C=C/S(=O)(=O)CS(=O)(=O)/C=C/c2cc(OC(C)=O)c(OC(C)=O)c(OC(C)=O)c2)cc(OC(C)=O)c1OC(C)=O |  | 50 µM
O=Cc1cc(S(=O)(=O)c2ccc(O)c(C=O)c2)ccc1O |  | 0.6 µM
COc1cc(/C=C/c2ccc3c(C(=O)O)cc(C(=O)O)c(O)c3n2)cc(O)c1O |  | 0.2 µM
COc1cc(/C=C/S(=O)(=O)CS(=O)(=O)/C=C/c2cc(OC)c(OC(C)=O)c(OC(C)=O)c2)cc(OC(C)=O)c1OC(C)=O |  | 30 µM
CN(C)CCCNC(=O)c1cc(NC(=O)c2cc(NC(=O)c3cc(NC4C(=O)c5ccccc5C4=O)cn3C)cn2C)cn1C |  | 11.1 µM
Nc1nc2c(ncn2C2CC(OP(=O)(O)OCC3OC(n4cnc5c(N)ncnc54)CC3O)C(COP(=O)(O)O)O2)c(=O)[nH]1 |  | >100 µM
CC(=O)Oc1ccc(/C=C/S(=O)(=O)CS(=O)(=O)/C=C/c2ccc(OC(C)=O)c(OC(C)=O)c2)cc1OC(C)=O |  | 70 µM
O=C1c2c(ccc(O)c2O)CN1Cc1ccc(F)cc1 |  | 282 µM
Cn1c(=O)c2[nH]c(SSc3nc4c([nH]3)c(=O)n(C)c(=O)n4C)nc2n(C)c1=O |  | >250 µM
CN1CCN(c2ccc3nc(-c4ccc5nc(-c6ccc(O)cc6)[nH]c5c4)[nH]c3c2)CC1 |  | >100 µM
CC1OC2CC(=O)OC2C2=C1C(=O)c1c(O)cccc1C2=O |  | 80 µM
Cc1ccnc(NS(=O)(=O)c2ccc(N=Nc3cc4ccccc4c(C(=O)O)c3O)cc2)n1 | Mn2+ | 21 µM
O=c1oc2ccccc2c(O)c1C(c1ccc(C(c2c(O)c3ccccc3oc2=O)c2c(O)c3ccccc3oc2=O)cc1)c1c(O)c2ccccc2oc1=O |  | 1.1 µM
O=C(Nc1ccc(Nc2ccncc2)cc1)c1ccc(Nc2ccnc3ccc([N+](=O)[O-])cc23)cc1[N+](=O)[O-] |  | 40 µM
Nc1ncnc2c1ncn2C1CC(O)C(COP(=O)(O)OC2CC(n3cnc4c(N)ncnc43)OC2COP(=O)(O)O)O1 |  | >100 µM
O=C1C(O)=C(c2ccccc2C(=O)O)C(=O)C(O)=C1c1ccccc1C(=O)O |  | 23 µM
Cc1cn(C2CC(OP(=O)(O)OCC3OC(n4cnc5c(=O)[nH]c(N)nc54)CC3O)C(COP(=O)(O)O)O2)c(=O)[nH]c1=O |  | 65 µM
CN(C)CCCNC(=O)c1cc(NC(=O)c2cc(NC(=O)c3cc(NC(=O)c4cccc(C(=O)Nc5cc(C(=O)Nc6cc(C(=O)Nc7cc(C(=O)NCCCN(C)C)n(C)c7)n(C)c6)n(C)c5)n4)cn3C)cn2C)cn1C |  | 100 µM
Nc1ccn(C2CC(O)C(COP(=O)(O)OC3CC(n4ccc(N)nc4=O)OC3COP(=O)(O)O)O2)c(=O)n1 |  | 15 µM
O=C1c2ccc(O)c(O)c2C(=O)N1Cc1cccc(CO)c1 |  | 38 µM
Cc1cn(C2CC(O)C(COP(=O)(O)OC3CC(n4cnc5c(N)ncnc54)OC3COP(=O)(O)OC3CC(n4ccc(N)nc4=O)OC3COP(=O)(O)O)O2)c(=O)[nH]c1=O |  | >100 µM
Nc1ccc(S(=O)(=O)c2ccc(N)cc2)cc1 |  | >100 µM
CN(C)CCCNC(=O)c1cc(NC(=O)c2cc(NC(=O)c3cc(NC(=O)c4cncc(C(=O)Nc5cc(C(=O)Nc6cc(C(=O)Nc7cc(C(=O)NCCCN(C)C)n(C)c7)n(C)c6)n(C)c5)c4)cn3C)cn2C)cn1C |  | 100 µM
O=C1c2ccc(O)c(O)c2C(=O)N1Cc1cccc(Cc2cc(F)c(F)c(F)c2)c1 |  | 9.8 µM
Cn1cc(NC(=O)c2cc(NC(=O)c3cc(NC(=O)CCCCCCC(=O)Nc4cc(C(=O)Nc5cc(C(=O)Nc6cc(C(=O)NCCC(=N)N)n(C)c6)n(C)c5)n(C)c4)cn3C)cn2C)cc1C(=O)NCCC(=N)N |  | 0.025 µM
CC(C)CCCCCCCCCCCSCNc1ccc(S(=O)(=O)c2ccc(NCSCCCCCCCCCCCC(C)C)cc2)cc1 |  | 90 µM
Cc1ccc(CN2Cc3ccc(O)c(O)c3C2=O)cc1F |  | 35 µM
O=C(CCl)Nc1ccc(S(=O)(=O)c2ccc(NC(=O)CCl)cc2)cc1 |  | 46.5 µM
NCCCNCCCCNCCCN |  | >100 µM
CC(=O)c1cc(S(=O)(=O)c2ccc(O)c(C(C)=O)c2)ccc1O |  | >100 µM
COc1cc(OC)c2c(O)c3c(c(-c4ccc5cc6c(c(O)c5c4O)C(=O)CC(C)(O)C6)c2c1)CC(C)OC3C |  | 21 µM
O=[N+]([O-])c1ccc(S(=O)(=O)c2ccc([N+](=O)[O-])cc2C(F)(F)F)c(C(F)(F)F)c1 |  | >100 µM
COc1cc(/C=C/C(=O)CC(=O)/C=C/c2ccc(O)c(OC)c2)ccc1O |  | ~100 µM

Again, the opening 5 rows:

structure	setting	value
O=C1c2c(ccc(O)c2O)CN1Cc1ccc(F)c(Cl)c1		13 µM
O=C(O)COc1ccc(S(=O)(=O)c2ccc(OCC(=O)O)c([N+](=O)[O-])c2)cc1[N+](=O)[O-]		70 µM
COC(=O)C(=O)c1c(-c2ccc(O)c(OC)c2)[nH]c2[nH]n(-c3ccccc3)c(=O)c2c1=O		>250 µM
CN(C)[C@@H]1C(=O)C(C(N)=O)=C(O)[C@@]2(O)C(=O)C3=C(O)c4c(O)cccc4[C@@](C)(O)[C@H]3[C@H](O)[C@@H]12	Mg2+	>200 µM
O=[N+]([O-])c1cc(S(=O)(=O)c2ccc(F)c([N+](=O)[O-])c2)ccc1F		51 µM